Target: GPIIb/IIIa (integrin αIIbβ3), not stated
Assay: cell-based or functional assay

Vicrostatin
IC50, inhibition of ADP-induced platelet aggregation: 60 nM

From US20060246541A1
